{"source": "patent US8546386B2", "about": "“Corrosion and microbial control in hydrocarbonaceous compositions” (Dow Global Technologies LLC, priority 2008, dated 2013)", "tested_on": "Pseudomonas aeruginosa ATCC#33988", "experiment": "Microbial testing in biodiesel fuel, plate count", "assay_type": "cell-based", "details": "no biocide", "data": [{"smiles": "OCCN(CCO)CCO", "values": [{"measurement": "Bacteria (Ps. aeruginosa) count", "setting": "additive 500 ppm, Week 1", "result": "1.80E+06", "unit": "Bact/ml"}, {"measurement": "Bacteria (Ps. aeruginosa) count", "setting": "additive 500 ppm, Week 2", "result": "3.00E+06", "unit": "Bact/ml"}, {"measurement": "Bacteria (Ps. aeruginosa) count", "setting": "additive 500 ppm, Week 4", "result": "9.00E+05", "unit": "Bact/ml"}, {"measurement": "Bacteria (Ps. aeruginosa) count", "setting": "additive 1500 ppm, Week 1", "result": "4.00E+05", "unit": "Bact/ml"}, {"measurement": "Bacteria (Ps. aeruginosa) count", "setting": "additive 1500 ppm, Week 2", "result": "7.60E+05", "unit": "Bact/ml"}, {"measurement": "Bacteria (Ps. aeruginosa) count", "setting": "additive 1500 ppm, Week 3", "result": "8.20E+05", "unit": "Bact/ml"}, {"measurement": "Bacteria (Ps. aeruginosa) count", "setting": "additive 1500 ppm, Week 4", "result": "5.70E+05", "unit": "Bact/ml"}]}]}
